Experimental findings from US20130149329A1 (BOARD OF REGENTS FOR OKLAHOMA STATE UNIVERSITY, published 2013) are described below.

For this assay, the target named is IpgC (cognate chaperone of IpaB, untagged, expressed from pACYCDuet-1) (Shigella flexneri 2457T, UniProt P0A2U4 1-155).

B1: His-tag IpaD-IpaB chimeric (fusion) protein (other)
chain: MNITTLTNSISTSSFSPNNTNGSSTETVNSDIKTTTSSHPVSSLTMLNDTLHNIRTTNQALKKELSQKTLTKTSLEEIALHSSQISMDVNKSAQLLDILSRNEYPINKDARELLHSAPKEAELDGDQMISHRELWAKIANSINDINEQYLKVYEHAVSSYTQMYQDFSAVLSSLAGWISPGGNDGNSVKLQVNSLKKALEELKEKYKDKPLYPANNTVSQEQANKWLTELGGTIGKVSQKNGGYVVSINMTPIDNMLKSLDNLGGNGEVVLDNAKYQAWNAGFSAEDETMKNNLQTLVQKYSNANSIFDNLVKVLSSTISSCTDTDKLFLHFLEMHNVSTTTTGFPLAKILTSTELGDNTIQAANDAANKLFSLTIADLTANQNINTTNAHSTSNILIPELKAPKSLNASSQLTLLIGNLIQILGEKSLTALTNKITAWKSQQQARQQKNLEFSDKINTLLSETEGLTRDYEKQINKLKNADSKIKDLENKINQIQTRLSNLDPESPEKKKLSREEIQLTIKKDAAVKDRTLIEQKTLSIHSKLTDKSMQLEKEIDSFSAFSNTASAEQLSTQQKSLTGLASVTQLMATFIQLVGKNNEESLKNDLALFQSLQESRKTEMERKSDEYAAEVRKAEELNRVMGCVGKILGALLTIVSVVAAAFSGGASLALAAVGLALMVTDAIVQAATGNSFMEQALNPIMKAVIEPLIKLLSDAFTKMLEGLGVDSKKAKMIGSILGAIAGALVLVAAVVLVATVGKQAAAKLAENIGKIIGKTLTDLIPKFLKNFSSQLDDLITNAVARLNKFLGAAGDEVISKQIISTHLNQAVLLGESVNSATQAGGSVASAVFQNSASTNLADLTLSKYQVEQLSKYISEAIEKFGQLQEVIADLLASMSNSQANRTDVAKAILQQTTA
With B1, the binding result is reported as “binds”.
